{
  "source": "patent US20240043504A1",
  "target": "UNMODIFIED-SARS-CoV-2 Spike Protein (RBD)(R319-F541).mmH (SARS-CoV-2)",
  "note": "Several values for one entry are separate records, joined by “and”; a condition that tells them apart may be missing. Equal values may be shown once.",
  "data": [
    {"substance": "Human_ACE2 (from UniProt Q9BYF1 18-740) (receptor; other documents disagree on this pair)", "values": [
      {"measurement": "Binding signal (MFI)", "result": "5730 MFI and 10700 MFI and 9270 MFI"}
    ]}
  ]
}
